Anti-infective test results gathered from many reports (values: NIAID ChemDB through PubChem).

All rows: growth or infection tests

Two numbers with a dash give a range or band.

smiles	setting	changes	species	read-out	strain or isolate	dose	read by	value
Fc1ccc(Cn2cc(/C=N/Nc3nncs3)c3ccccc32)cc1	48 h		Mycobacterium bovis BCG	MIC100	1173P2		broth dilution	3.91 µg/mL
CN(C)CC1CCN(c2c(F)cc3c(=O)c(C(=O)O)cn(C4CC4)c3c2F)C1			Mycobacterium avium complex	MIC	1760694			2 µg/mL
Cc1ccc2c(c1)C1(C(=O)N2)C2=C(CN1C)C(=O)c1ccccc1C2=O			Mycobacterium luteus	MIC			agar diffusion	62.5 µg/mL
O=C(NOCc1ccccc1)c1cc([N+](=O)[O-])cc(C(F)(F)F)c1			Mycobacterium luteus	zone	ATCC 10240	2000 µM	agar diffusion / agar	14–20 mm
C[C@H]1COC2(CCN(c3nc(=O)c4cc(C(F)(F)F)cc([N+](=O)[O-])c4s3)CC2)O1			Mycobacterium aurum	MIC	SB66		broth dilution / turbidity	>200 µg/mL
CCCN(CCC)C(=O)c1cc(C)cc(C(=O)N[C@@H](Cc2ccccc2)[C@H](O)CNCc2cccc(I)c2)c1			Mycobacterium kansasii	zone	262	100 µg/disc	agar diffusion	18 mm
O=c1c(O)c(-c2ccc(O)cc2)oc2cc(O)cc(O)c12			Mycobacterium phlei	MIC				50 µg/mL
Nc1nc(N)c2c(n1)NC(c1ccc(Cl)cc1)CC(c1ccc3c(c1)OCO3)=N2	clinical isolate		Mycobacterium scrofulaceum	MIC	MNT1193		MTT / broth dilution / absorbance	32 µg/mL
CC(C)N=c1cc2n(-c3ccc(Cl)cc3)c3ccccc3nc-2cc1Nc1ccc(Cl)cc1			Mycobacterium avium complex	MIC	549/HIV+			0.5 µg/mL
CC(C)(C)n1cc(C(=O)O)c(=O)c2cc(F)c(N3CCNCC3)nc21			Mycobacterium fortuitum	MIC	ATCC 6841			0.06 µg/mL
CC1CN(c2c(F)cc3c(=O)c(C(=O)O)cn(C4CC4)c3c2Cl)CC(C)N1			Mycobacterium smegmatis	MIC99	KD1163 (GRYA+)			0.058 µg/mL
O=C(NO)c1ccc([N+](=O)[O-])cc1			Mycobacterium vaccae	MIC	IMET 10670		resazurin	6.25 µM
C[C@@H]1CN(c2c(F)c(N)c3c(=O)c(C(=O)O)cn(C4CC4)c3c2F)C[C@H](C)N1			Mycobacterium avium intracellulare	MIC				0.4 µg/mL
COc1cc(Cc2cnc(N)nc2N)cc(OC)c1OCCCNc1ccc(S(=O)(=O)c2ccc(N)cc2)cc1			Mycobacterium ulcerans	MBC	ATCC 35840			2 µg/mL
CC(C)(C)[Si](C)(C)ONC(=O)c1cc([N+](=O)[O-])cc(C(F)(F)F)c1			Mycobacterium luteus	zone	ATCC 10240	2000 µM	agar diffusion / agar	0 mm
CNCC1CCN(c2c(F)cc3c(=O)c(C(=O)O)cn(-c4ccc(F)cc4F)c3c2OC)C1			Mycobacterium fortuitum	MIC	ATCC 6841			1 µg/mL
N/C(=N\N=C\c1cccc2ccccc12)c1ccccn1			Mycobacterium fortuitum	inhibition		1000 µM		10.1%
CC1CN(c2nc3c(cc2F)c(=O)c(C(=O)O)cn3-c2ccc(F)cc2F)CCN1			Mycobacterium fortuitum	MIC	ATCC 6841			0.13 µg/mL
COc1ccc2c(c[n+](C)c3c4cc5c(cc4ccc23)OCO5)c1OC			Mycobacterium aurum	MIC50				7.3 µg/mL
C[C@@H]1O[C@@H](OC[C@H]2O[C@@H](Oc3c(-c4ccc(O)c(O)c4)oc4cc(O)cc(O)c4c3=O)[C@H](O)[C@@H](O)[C@@H]2O)[C@H](O)[C@H](O)[C@H]1O			Mycobacterium phlei	MIC				>100 µg/mL
CC1CN(c2cc3c(cc2F)c(=O)c(C(=O)O)cn3C2CC2)CC(C)N1			Mycobacterium smegmatis	MIC99	KD2012 (GYRA G89A)			0.63 µg/mL
CO[C@H]1/C=C/O[C@@]2(C)Oc3c(C)c(O)c4c(O)c(c(/C=N/N5CCN(C)CC5)c(O)c4c3C2=O)NC(=O)/C(C)=C\C=C\[C@H](C)[C@H](O)[C@@H](C)[C@@H](O)[C@@H](C)[C@H](OC(C)=O)[C@@H]1C			Mycobacterium avium intracellulare	inhibition	Serovar 8	2.5 µg/mL		63%
CCCN(CCC)C(=O)c1cc(C)cc(C(=O)N[C@H]([C@H](O)CNCc2cccc(I)c2)C(F)(F)c2ccccc2)c1			Mycobacterium kansasii	zone	ATCC 35775	100 µg/disc	agar diffusion	11 mm
CO[C@H]1/C=C/O[C@@]2(C)Oc3c(C)c(O)c4c(O)c(c(/C=N/N5CCN(C)CC5)c(O)c4c3C2=O)NC(=O)/C(C)=C\C=C\[C@H](C)[C@H](O)[C@@H](C)[C@@H](O)[C@@H](C)[C@H](OC(C)=O)[C@@H]1C			Mycobacterium bovis	MIC	SB0133		resazurin	2 µg/mL
COc1ccc(C2CC(c3ccc4c(c3)OCO4)=Nc3c(N)nc(SC)nc3N2)cc1	clinical isolate		Mycobacterium szulgai	MIC	MNT1100		MTT / broth dilution / absorbance	>32 µg/mL
CN1CCN(c2c(F)cc3c(=O)c(C(=O)O)cn(C4CC4)c3c2Br)CC1			Mycobacterium fortuitum	MIC	ATCC 6841			0.06 µg/mL
CN1CCN(c2c(F)cc3c(=O)c(C(=O)O)cn4c3c2SCC4)CC1			Mycobacterium avium intracellulare	MIC				31 µg/mL
COc1c(O)cc2oc(-c3ccccc3)c(OC)c(=O)c2c1O			Mycobacterium phlei	MIC				15 µg/mL
CCN1CCN(c2c(F)cc3c(=O)c(C(=O)O)cn(C4CC4)c3c2F)CC1			Mycobacterium smegmatis	MIC99	KD1995 (GYRA D95H)			2 µg/mL
COc1c(N2CCNC(C)C2)c(F)cc2c(=O)c(C(=O)O)cn(C3CC3)c12			Mycobacterium avium intracellulare	MIC				0.9 µg/mL
N/C(=N\N=C\c1ccccn1)c1ccccn1			Mycobacterium fortuitum	inhibition		1000 µM		3.7%
CCn1cc(C(=O)O)c(=O)c2cc(F)c(N3CCNC(C)C3)c(F)c21			Mycobacterium avium intracellulare	MIC				4.5 µg/mL
NCC[C@H](O)C(=O)N[C@@H]1C[C@H](N)[C@@H](O[C@H]2O[C@H](CN)[C@@H](O)[C@H](O)[C@H]2O)[C@H](O)[C@H]1O[C@H]1O[C@H](CO)[C@@H](O)[C@H](N)[C@H]1O			Mycobacterium fortuitum	MIC50	10 strains			0.5 µg/mL
Nc1nc(N)c2c(n1)NC(c1ccc(C(F)(F)F)cc1)CC(c1ccc3c(c1)OCO3)=N2	clinical isolate		Mycobacterium scrofulaceum	MIC	MNT1193		MTT / broth dilution / absorbance	32 µg/mL
O=C(NOCc1ccccc1)c1cc(Br)cc(C(F)(F)F)c1			Mycobacterium luteus	zone	ATCC 10240	2000 µM	agar diffusion / agar	16 mm
C[C@H]1COC2(CCN(c3nc(=O)c4cc(C(F)(F)F)cc(C(=O)O)c4s3)CC2)O1			Mycobacterium bolletii	MIC99	1999-0888		resazurin	>100 µg/mL
C#CCN1C(=O)C2(C3=C(CN2C)C(=O)c2ccccc2C3=O)c2ccccc21			Mycobacterium luteus	MIC			agar diffusion	125 µg/mL
O=c1c(O)c(-c2ccc(O)c(O)c2)oc2cc(O)cc(O)c12			Mycobacterium phlei	MIC				>100 µg/mL
Nc1nc(N)c2c(n1)NC(c1ccc(F)cc1)CC(c1ccc3c(c1)OCO3)=N2	clinical isolate		Mycobacterium scrofulaceum	MIC	MNT1193		MTT / broth dilution / absorbance	32 µg/mL
CN[C@@H]1[C@H](O[C@H]2[C@H](O[C@H]3[C@H](O)[C@@H](O)[C@H](N=C(N)N)[C@@H](O)[C@@H]3N=C(N)N)O[C@@H](C)[C@]2(O)C=O)O[C@@H](CO)[C@H](O)[C@H]1O			Mycobacterium avium complex	MIC	Isolate C-39			≥100 µg/mL
CO[C@@H]1C[C@@H](C[C@H]2CC[C@H](C)[C@H]([C@@H](C)C(=O)O)O2)O[C@]2(O[C@](C)([C@H]3CC[C@@](C)([C@@H]4O[C@@H]([C@H]5O[C@@](O)(CO)[C@H](C)C[C@@H]5C)C[C@@H]4C)O3)C[C@H]2C)[C@@H]1C		C410 deletion	Mycobacterium aurum	MIC			resazurin	0.32 µg/mL
CC[C@@H](CO)NCCN[C@@H](CC)CO			Mycobacterium kansasii	zone	262	100 µg/disc	agar diffusion	>55 mm
CCn1cc(C(=O)O)c(=O)c2cc(F)c(N3CCC(CNC)C3)nc21			Mycobacterium fortuitum	MIC	ATCC 6841			0.25 µg/mL
Nc1nc(N)c2c(n1)NC(c1ccc3c(c1)OCO3)CC(c1ccccc1)=N2	clinical isolate		Mycobacterium szulgai	MIC	MNT1100		MTT / broth dilution / absorbance	>32 µg/mL
NC[C@@H]1O[C@H](O[C@H]2[C@@H](O)[C@H](O[C@@H]3[C@@H](O)[C@H](N)C[C@H](N)[C@H]3O[C@H]3O[C@H](CO)[C@@H](O)[C@H](O)[C@H]3N)O[C@@H]2CO)[C@H](N)[C@@H](O)[C@@H]1O			Mycobacterium avium complex	MIC	CH-4/HIV+			3.12 µg/mL
C#CCN1C(=O)C2(C3=C(C(=O)c4ccccc4C3=O)C3CCCN32)c2ccccc21			Mycobacterium luteus	zone		50 µg/mL	agar diffusion	9 mm
N/N=C(\N)c1ccccn1			Mycobacterium fortuitum	inhibition		1000 µM		7.7%
CCn1cc(/C=N/NC(=S)NN)c2ccccc21	24 h		Mycobacterium bovis BCG	MIC100	1173P2		broth dilution	>500 µg/mL
CC(C)=CCC/C(C)=C/CNCCNC1C2CC3CC(C2)CC1C3			Mycobacterium kansasii	zone	ATCC 35775	100 µg/disc	agar diffusion	55 mm
CCn1cc(C(=O)O)c(=O)c2cc(F)c(N3CCN(C)CC3)cc21			Mycobacterium avium intracellulare	MIC				10 µg/mL
Nc1nc(N)c2c(n1)NC(c1ccccc1)CC(c1ccc3c(c1)OCO3)=N2	clinical isolate		Mycobacterium scrofulaceum	MIC	MNT1193		MTT / broth dilution / absorbance	32 µg/mL
CCn1cc(C(=O)O)c(=O)c2cc(F)c(N3CCNCC3)nc21			Mycobacterium avium intracellulare	MIC				27.7 µg/mL
O=C(N[C@H]([C@H](O)CNCc1cccc(I)c1)C(F)(F)c1ccccc1)OCc1ccccc1			Mycobacterium kansasii	zone	ATCC 35775	50 µg/disc	agar diffusion	12 mm
CC1CN(c2c(F)cc3c(=O)c(C(=O)O)cn(C4CC4)c3c2Br)CC(C)N1			Mycobacterium fortuitum	MIC	ATCC 6841			0.06 µg/mL
NC1CCN(c2c(F)cc3c(=O)c(C(=O)O)cn(C4CC4)c3c2F)C1			Mycobacterium avium complex	MIC	1760694			16 µg/mL
O=Cc1cccc2ccccc12			Mycobacterium fortuitum	inhibition		1000 µM		9.2%
NNC(=S)N/N=C/c1cn(Cc2ccc(F)cc2)c2ccccc12	24 h		Mycobacterium bovis BCG	MIC100	1173P2		broth dilution	>500 µg/mL
CC1COc2c(N3CCN(C)CC3)c(F)cc3c(=O)c(C(=O)O)cn1c23			Mycobacterium avium intracellulare	MIC				2.5 µg/mL
CO[C@H]1/C=C/O[C@@]2(C)Oc3c(C)c(O)c4c(=O)c(c5oc6cc(N7CCN(CC(C)C)CC7)cc(=O)c6nc5c4c3=C2O)NC(=O)/C(C)=C\C=C\[C@H](C)[C@H](O)[C@@H](C)[C@@H](O)[C@@H](C)[C@H](OC(C)=O)[C@@H]1C			Mycobacterium avium	MBC	453			>0.125 µg/mL
Cc1ccc2c(c1)C1(C(=O)N2C)C2=C(CN1C)C(=O)c1ccccc1C2=O			Mycobacterium luteus	MIC			agar diffusion	125 µg/mL
CCC1CN(c2c(F)cc3c(=O)c(C(=O)O)cn(C4CC4)c3c2F)CCN1			Mycobacterium smegmatis	MIC99	KD1987 (GYRA A91V)			0.53 µg/mL
COc1cc(Cc2cnc(N)nc2N)cc(OC)c1OC			Mycobacterium ulcerans	MIC	Isolate 94-886			>16 µg/mL
COc1c(N2CCN(C(C)C)CC2)c(F)cc2c(=O)c(C(=O)O)cn(C3CC3)c12			Mycobacterium smegmatis	MIC99	KD1990 (GYRA D95A)			1.2 µg/mL
CCn1cc(C(=O)O)c(=O)c2cc(F)c(-n3cccc3)cc21	pH 6.8		Mycobacterium avium	inhibition		3 µg/mL		41%
O=C(O)c1cn(C2CC2)c2c(F)c(N3CCNCC3)c(F)cc2c1=O			Mycobacterium smegmatis	MIC99	KD1995 (GYRA D95H)			1.1 µg/mL
CN(C)C1CCN(c2c(F)cc3c(=O)c(C(=O)O)cn(C4CC4)c3c2F)C1			Mycobacterium avium complex	MIC	1915112			1 µg/mL
CCC1CN(c2cc3c(cc2F)c(=O)c(C(=O)O)cn3C2CC2)CCN1			Mycobacterium smegmatis	MIC99	KD1163 (GRYA+)			0.12 µg/mL
CO[C@H]1/C=C/O[C@@]2(C)Oc3c(C)c(O)c4c(O)c(c(/C=N/N5CCN(C)CC5)c(O)c4c3C2=O)NC(=O)/C(C)=C\C=C\[C@H](C)[C@H](O)[C@@H](C)[C@@H](O)[C@@H](C)[C@H](OC(C)=O)[C@@H]1C			Mycobacterium avium intracellulare	MIC	CIPT 140310001			0.1 µg/mL

The last 5 rows once more:

smiles	setting	changes	species	read-out	strain or isolate	dose	read by	value
CCn1cc(C(=O)O)c(=O)c2cc(F)c(-n3cccc3)cc21	pH 6.8		Mycobacterium avium	inhibition		3 µg/mL		41%
O=C(O)c1cn(C2CC2)c2c(F)c(N3CCNCC3)c(F)cc2c1=O			Mycobacterium smegmatis	MIC99	KD1995 (GYRA D95H)			1.1 µg/mL
CN(C)C1CCN(c2c(F)cc3c(=O)c(C(=O)O)cn(C4CC4)c3c2F)C1			Mycobacterium avium complex	MIC	1915112			1 µg/mL
CCC1CN(c2cc3c(cc2F)c(=O)c(C(=O)O)cn3C2CC2)CCN1			Mycobacterium smegmatis	MIC99	KD1163 (GRYA+)			0.12 µg/mL
CO[C@H]1/C=C/O[C@@]2(C)Oc3c(C)c(O)c4c(O)c(c(/C=N/N5CCN(C)CC5)c(O)c4c3C2=O)NC(=O)/C(C)=C\C=C\[C@H](C)[C@H](O)[C@@H](C)[C@@H](O)[C@@H](C)[C@H](OC(C)=O)[C@@H]1C			Mycobacterium avium intracellulare	MIC	CIPT 140310001			0.1 µg/mL

Zone: diameter of growth inhibition. Conditions beyond the fields shown may differ between rows. A number after MIC or MFC names an inhibition level or a share of isolates. Inhibition is in % at the dose shown (toxicity tests: loss of growth or viability). Blank or dashed fields: not listed here.